{
  "source": "paper PMC5618191",
  "about": "“The Natural Fungal Metabolite Beauvericin Exerts Anticancer Activity In Vivo: A Pre-Clinical Pilot Study” (Toxins, 2017)",
  "assay": "H/E stained tissue sections of diverse organs of treated mice",
  "format": "in vivo",
  "conditions": "beauvericin-treated mice",
  "data": [
    {"substance": "beauvericin", "values": [
      {"measurement": "Tissue alteration or inflammatory responses in H/E stained sections of diverse organs", "result": "no signs of tissue alteration or inflammatory responses"}
    ]}
  ]
}
